{
  "source": "patent US20110015130",
  "about": "“Polypeptides Selective for alphavbeta3 Integrin Conjugated With a Variant Of Human Serum Albumin (HSA) And Pharmaceutical Uses Thereof” (published 2011)",
  "key": {"[1]": {"molecular_target": "integrin αllbβ3 on Chinese hamster ovary cells (CHO-αllbβ3), not stated, P08514 32-1039; P05106 27-788", "test": "cell adhesion inhibition, CHO-αllbβ3 cells on coated matrix protein"}, "[2]": {"molecular_target": "integrin αvβ3 on Chinese hamster ovary cells (CHO-αvβ3), not stated, P06756 31-1048; P05106 27-788", "test": "cell adhesion inhibition, CHO-αvβ3 cells on coated matrix protein"}, "[3]": {"molecular_target": "integrin α5β1 (human erythroleukemia K562 cells), human, P08648 42-1049; P05556 21-798", "test": "cell adhesion inhibition, K562 cells on coated matrix protein"}, "[4]": {"molecular_target": "platelet glycoprotein αllbβ3 (human platelets in platelet-rich plasma), human, P08514 32-1039; P05106 27-788", "test": "cell-based or functional assay"}},
  "data": [
    {"substance": "ARLDDL (rhodostomin variant having an RGD motif variant 48ARLDDL53)", "values": [
      {"measurement": "IC50", "setting": "[1]", "result": 23.2, "unit": "µM"},
      {"measurement": "IC50", "setting": "[2]", "result": 0.048, "unit": "µM"},
      {"measurement": "IC50", "setting": "[3]", "result": 6.42, "unit": "µM"}
    ]},
    {"substance": "HSA(C34S)-ARLDDL fusion protein", "values": [
      {"measurement": "IC50", "setting": "[1]", "result": 11.4, "unit": "µM"},
      {"measurement": "Platelet aggregation IC50 (ADP-induced, human platelet-rich plasma)", "setting": "[4]", "result": 11, "unit": "µM"}
    ]},
    {"substance": "HSA-ARLDDL (human albumin-conjugated product of ARLDDL protein)", "values": [
      {"measurement": "IC50", "setting": "[1]", "result": 12.3, "unit": "µM"},
      {"measurement": "Platelet aggregation IC50 (ADP-induced, human platelet-rich plasma)", "setting": "[4]", "result": 11.2, "unit": "µM"}
    ]},
    {"substance": "pegylated-ARLDDL", "values": [
      {"measurement": "IC50", "setting": "[1]", "result": 15.7, "unit": "µM"},
      {"measurement": "IC50", "setting": "[2]", "result": 0.115, "unit": "µM"},
      {"measurement": "Platelet aggregation IC50 (ADP-induced, human platelet-rich plasma)", "setting": "[4]", "result": 13.2, "unit": "µM"}
    ]}
  ]
}
